In ChEMBL document CHEMBL4024787, “Target Identification and Mode of Action of Four Chemically Divergent Drugs against Ebolavirus Infection” (J Med Chem, 2018) one finds ΔTm data, which are given here for one compound.

For the assay, the target named is T1, Envelope glycoprotein (Zaire ebolavirus (strain Mayinga-76) (ZEBOV) (Zaire Ebola virus)) (UniProt Q05320).
T1 sequence (whole entry): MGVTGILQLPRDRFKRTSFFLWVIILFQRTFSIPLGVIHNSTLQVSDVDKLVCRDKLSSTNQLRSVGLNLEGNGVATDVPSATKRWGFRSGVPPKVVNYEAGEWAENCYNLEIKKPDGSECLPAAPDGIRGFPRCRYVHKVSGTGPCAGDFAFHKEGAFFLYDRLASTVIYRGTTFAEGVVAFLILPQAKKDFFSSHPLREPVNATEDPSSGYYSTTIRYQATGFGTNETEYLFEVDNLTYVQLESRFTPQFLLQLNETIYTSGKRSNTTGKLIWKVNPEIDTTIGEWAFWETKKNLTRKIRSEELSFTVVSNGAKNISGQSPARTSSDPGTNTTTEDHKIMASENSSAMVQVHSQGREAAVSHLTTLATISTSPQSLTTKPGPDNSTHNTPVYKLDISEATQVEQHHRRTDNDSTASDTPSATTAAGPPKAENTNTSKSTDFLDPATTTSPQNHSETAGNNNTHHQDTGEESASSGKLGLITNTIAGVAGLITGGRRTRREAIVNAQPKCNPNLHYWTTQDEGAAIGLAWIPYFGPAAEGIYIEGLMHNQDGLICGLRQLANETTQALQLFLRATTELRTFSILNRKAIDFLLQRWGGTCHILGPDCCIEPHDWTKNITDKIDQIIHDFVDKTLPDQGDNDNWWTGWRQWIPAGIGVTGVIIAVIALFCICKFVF
Put plainly: Binding affinity to Ebola virus Zaire Mayinga-76 recombinant GP protein assessed as change in melting temperature at 500 uM by SYPRO orange dye-based fluorescence assay. The conditions noted are these: 1976.

For the compound `CN(C)CCOc1ccc(/C(=C(/CCCl)c2ccccc2)c2ccccc2)cc1` [TOREMIFENE], the ΔTm was -15 °C.
